Some peptides are written in HELM: one residue between dots, names in brackets for other building blocks, links after the first $.
Assay: general procedure: solution-phase peptide synthesis

Row | Substance | step yield (coupling step) [%] | step yield (late stage modification step) [%]
1 | Boc-(N-Me)Val-Tbq-CH2 (R)--CH(CH2 C(O)CMe3)C(O)-Asp(cyPn) (Bzl)-NH--(S)--CH (CH2 CMe3)CH2 OBzl | 72 | 
2 | H-Tbq-CH2 CH(CH2 C(O)CMe3)C(O)-Asp(cyPn)(Bzl)-NH--(S)--CH(CH2 CMe3)CH2 OBzl |  | 52
3 | PEPTIDE1{[PhCH2CH2CO].[NMeVal].[TbgCH2-(R)-CH(CH2COCMe3)CO].[Asp(cyPn)].[gMeLeucinol]}$$$$V2.0 |  | 95

Reference: US5574015A (priority 1994, dated 1996)
